Laboratory results: PubChem BioAssay AID1259414 (Drosophila RNAi Screening Center, 2018)
Screen: 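Genome-wide screen for host control of endosymbiont load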 (primary screen). System: Drosophila JW18 cells infected with Wolbachia. Reagents: long dsRNA against Drosophila genes, 0.25 µg dsRNA per well of a 384-well plate. Timing: 5 days. Treatment: cells persistently infected with Wolbachia before knock-down; no added drug. Read-out: 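Automated imaging of bacterial rRNA staining divided by host cell count, reported as plate-normalised robust z-score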. Reading the numbers: Wolbachia per cell robust z: higher = more Wolbachia per host cell than the plate typical. Call rule: 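Active if absolute robust z reaches 1.5 in two or more of three replicates, leaving out multi- or no-target dsRNAs, genes unexpressed in JW18 and A1 wells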.
The screen tested about 24,000 reagents; this is an unselected part of those with a known target gene and a result. Over the whole deposit, about 1,210 (5%) are marked active. 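Inactive calls also include excluded dsRNAs with several or no targets, genes unexpressed in JW18, and well A1, regardless of score.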 Unmarked entries are inactive. The numbers tell different reagents against one gene apart.

msd5 #1 → Wolbachia per cell robust z, rep 1: 0.992; Wolbachia per cell robust z, rep 2: 0.738; Wolbachia per cell robust z, rep 3: 0.619
msd5 #2 → Wolbachia per cell robust z, rep 1: 0.564; Wolbachia per cell robust z, rep 2: 0.802; Wolbachia per cell robust z, rep 3: -0.459
Octalpha2R #1 → Wolbachia per cell robust z, rep 1: -1.23; Wolbachia per cell robust z, rep 2: -7.4; Wolbachia per cell robust z, rep 3: -2.92
Octalpha2R #2 → Wolbachia per cell robust z, rep 1: 0.223; Wolbachia per cell robust z, rep 2: 0.41; Wolbachia per cell robust z, rep 3: -1.51
CG18268 → Wolbachia per cell robust z, rep 1: 0.477; Wolbachia per cell robust z, rep 2: 0.91; Wolbachia per cell robust z, rep 3: -1.93
Pdcd4 → Wolbachia per cell robust z, rep 1: 1.1; Wolbachia per cell robust z, rep 2: 0.867; Wolbachia per cell robust z, rep 3: 0.466
Gyc32E #1 → Wolbachia per cell robust z, rep 1: 0.412; Wolbachia per cell robust z, rep 2: 0.918; Wolbachia per cell robust z, rep 3: 0.606
Gyc32E #2 → Wolbachia per cell robust z, rep 1: 0.127; Wolbachia per cell robust z, rep 2: 0.515; Wolbachia per cell robust z, rep 3: 0.431
ZnT63C #1 → Wolbachia per cell robust z, rep 1: -0.0833; Wolbachia per cell robust z, rep 2: -0.225; Wolbachia per cell robust z, rep 3: -0.341
ZnT63C #2 → Wolbachia per cell robust z, rep 1: -0.444; Wolbachia per cell robust z, rep 2: 0.276; Wolbachia per cell robust z, rep 3: -0.509
ZnT63C #3 → Wolbachia per cell robust z, rep 1: -2.5; Wolbachia per cell robust z, rep 2: -1.42; Wolbachia per cell robust z, rep 3: 0.158
ZnT63C #4 → Wolbachia per cell robust z, rep 1: 0.525; Wolbachia per cell robust z, rep 2: -0.221; Wolbachia per cell robust z, rep 3: -0.623
ZnT63C #5 → Wolbachia per cell robust z, rep 1: -0.604; Wolbachia per cell robust z, rep 2: 0.409; Wolbachia per cell robust z, rep 3: 0.0465
CG12679 #1 → Wolbachia per cell robust z, rep 1: -0.282; Wolbachia per cell robust z, rep 2: -1.26; Wolbachia per cell robust z, rep 3: -2.28
CG12679 #2 → Wolbachia per cell robust z, rep 1: -0.0798; Wolbachia per cell robust z, rep 2: -1.36; Wolbachia per cell robust z, rep 3: -0.573
CG10962 #1 → Wolbachia per cell robust z, rep 1: 1.57; Wolbachia per cell robust z, rep 2: -0.0945; Wolbachia per cell robust z, rep 3: -0.3
CG10962 #2 → Wolbachia per cell robust z, rep 1: -0.449; Wolbachia per cell robust z, rep 2: -6.03; Wolbachia per cell robust z, rep 3: -7.8

Copied from above, 2 entries:
Gyc32E #1 → Wolbachia per cell robust z, rep 1: 0.412; Wolbachia per cell robust z, rep 2: 0.918; Wolbachia per cell robust z, rep 3: 0.606
Gyc32E #2 → Wolbachia per cell robust z, rep 1: 0.127; Wolbachia per cell robust z, rep 2: 0.515; Wolbachia per cell robust z, rep 3: 0.431
